Results of unrelated studies side by side (data: NIAID ChemDB).

All rows: whole-cell or culture tests; species: HIV-1; method: MTT; read-out: EC50

ECn is the concentration giving n% inhibition of infection, replication or growth. An empty or dashed field is not shown. Lines come from different laboratories, so protocols vary.

smiles	changes	strain	cells	result
CC1NCCc2cc(O)c(O)cc21			H9	>2.5 µg/mL
Cc1cn([C@H]2C[C@H](N=[N+]=[N-])[C@@H](CO)O2)c(=O)[nH]c1=O			MT-4	0.0007 µg/mL
C/C=C/c1cc(=O)c2c(CC(C)=O)cc(O)cc2o1		IIIB	C8166	1.87 µg/mL
c1cc(CN2CCCNCCNCCCNCC2)ccc1CN1CCCNCCNCCCNCC1		SDF-resistant (subtype B)	MT-4	0.008 µg/mL
CC(C)=CCN1Cc2cc(Cl)cc3[nH]c(=S)n(c23)C[C@@H]1C	RT-D67N K70N T215F K219Q	ADP141 (RT D67N K70N T215F K219Q)	MT-4	0.001 µg/mL
C=CC(C)(C)O[C@H](C)[C@@H]1NC(=O)[C@H]2CSC(=N2)[C@@H](Cc2ccccc2)NC(=O)[C@@H]2CCCN2C(=O)[C@H](CO)NC(=O)C(CC(C)C)NC1=O			CEM	>78 µM
Cc1cnc(Nc2ccc(C#N)cc2)nc1C(O)c1ccc2ccccc2c1	K103N/Y181C		MT-4	>6.1 µM
Cc1cc(C)c(Nc2nc(NC3CCN(Cc4cccnc4)CC3)nc3nc[nH]c23)c(C)c1		RES056	MT-4	>132 µM
C#Cc1ccc(Nc2nccc(Oc3c(C)cc(-c4cn(CCc5ccccc5)nn4)cc3C)n2)cc1	Y188L	IIIB	MT-4	>5.66 µM
CN(C)C1=NS(=O)(=O)NC(Cc2ccc3ccccc3c2)=C1		IIIB	MT-4	>268 µM
CC(C)[C@H](NC(=O)OCc1ccccc1)C(=O)N[C@@H](Cc1ccc(OCc2ccccc2)cc1)C(=O)C(F)(F)C(=O)NCc1ccccc1		RF	MT-4	0.6 µM
O=C1c2ccccc2C2(c3ccccc3)SCCN12		IIIB	MT-2	0.68 µM
Cc1cc(C(O)c2ccc3ccccc3c2)nc(Nc2ccc(C#N)cc2)n1	K103N/Y181C		MT-4	>31.2 µM
N#Cc1ccc(Cn2cc(CSc3nc(Cc4c(Cl)cccc4Cl)cc(=O)[nH]3)nn2)cc1		RES056		>133 µM
CC(=O)c1ccc(C)cc1NC(C(N)=O)c1c(Cl)cccc1Cl	RT-L74V	ADP144 (RT-L74V)	MT-4	0.002 µg/mL
Cc1cn([C@H]2C=C[C@@H](CO)O2)c(=O)[nH]c1=O		IIIB	MT-2	4.2 µM
NC(=O)c1ccc(Cn2cc(CSc3nc(Cc4cccc5ccccc45)c(I)c(=O)[nH]3)nn2)cc1		IIIB		>88.01 µM
Cc1cn([C@H]2C[C@H](N=[N+]=[N-])[C@@H](CO)O2)c(=O)[nH]c1=O	74V	Clinical isolate	C8166	0.00485 µM
CC(C)CN(C[C@@H](O)[C@H](Cc1ccccc1)NC(=O)O[C@H]1CCOC1)S(=O)(=O)c1ccc(N)cc1		ROD	MT-2	0.34 µM
Cc1cn([C@H]2C[C@H](N=[N+]=[N-])[C@@H](COP(=O)(O)O)O2)c(=O)[nH]c1=O			MT-4	0.001 µM
C1CNCCNCCCNCCNC1.[Cl-].[O]=[V+2]		IIIB	MT-4	>360 µM
C/C=C(/C)C(=O)Oc1c(OC)c(OC)cc2c1-c1c(cc(OC)c(OC)c1OC)[C@H](O)[C@H](C)[C@H](C)C2			C8166	22.9 µM
Nc1ccn([C@H]2CC[C@@H](CO)O2)c(=O)n1		IIIB	MT-4	1.468 µM
O=c1[nH]cnc2c1ncn2[C@H]1CC[C@@H](CO)O1	RT-M184V	3TC 3TC-resistant (RT M184V)	MT-4	3.6 µg/mL
Cc1cc(C)c(CN2CCC(N=C3C=C(Cc4ccc(Cl)cc4Cl)NS(=O)(=O)N3)CC2)c(C)c1		IIIB	MT-4	>37.35 µM
c1cc(CCNCCN2CCCC2)ccc1CCNCCN1CCCC1			MT-4	1.42 µM
Cc1ccnc2c1NC(=O)c1cccnc1N2C1CC1		NL4-3	TZM-bl	1.64 µM
COc1ccc(Cn2cc(CSc3nc(Cc4c(Cl)cccc4Cl)c(C)c(=O)[nH]3)nn2)cc1		RES056		>28.98 µM
CN(C)C(=O)N1CCN(C(=O)N2CCOCC2)CC1		NL4-3	MT-4	>125 µg/mL
O=C1C=C2CC(OC3C[C@@]45OC(=O)C=C4C[C@@H]3N3CCCC[C@H]35)[C@@H]3C[C@@]2(O1)[C@H]1CCCN31		NL4-3	MT-4	120 µM
Cc1cc(NC2=NS(=O)(=O)NC(Cc3ccccc3)=C2)ccc1Cl		IIIB	MT-4	>179 µM
CN1CCN(CCCNCc2ccc(CNCCCN3CCN(C)CC3)cc2)CC1			MT-4	22.8 µM
CCN(CC)C(=O)N1CCN(C(=O)N2CCCC2)CC1		NL4-3	MT-4	>125 µg/mL
Nc1ncnc2c1ncn2[C@H]1C[C@@H](OCP(=O)(O)O)CO1		IIIB	MT-4	4.69 µM
O=c1[nH]c(SCc2cn(Cc3ccccc3)nn2)nc(Cc2c(Cl)cccc2Cl)c1I		RES056		>120 µM
CN(C)C(=O)N1CCN(C(=O)N2CCCCC2)CC1		NL4-3	MT-4	>125 µg/mL
O=S1(=O)NC(Cc2cccc3ccccc23)=CC(=NC2CCN(Cc3ccc(Br)cc3)CC2)N1	RT-K103N Y181C	RES056	MT-4	>83.78 µM
c1cc(CN2CCCNCCNCCCNCC2)ccc1CN1CCCNCCNCCCNCC1		NL4-3	MT-4	0.096 µM
c1cc(CNCCCN2CCCC2)ccc1CCNCCCN1CCOCC1			MT-4	9.725 µM
C=C(C#N)c1cc(C)c(Oc2ccnc(Nc3ccc(CN4CCN(S(C)(=O)=O)CC4)cc3)n2)c(C)c1	K103N	IIIB	MT-4	0.0036 µM
C#Cc1ccc(Nc2nccc(Oc3c(C)cc(-c4cn(Cc5ccc(S(N)(=O)=O)cc5)nn4)cc3C)n2)cc1	Y181C	IIIB	MT-4	0.53 µM
CC(C)=CCC/C(C)=C/CN1CCc2cc(O)c(O)cc2[C@H]1C			H9	>2.5 µg/mL
c1cc(CCNCCN2CCCCC2)ccc1CCNCCN1CCCCC1			MT-4	0.26 µM
COC(=O)c1ccc(CN2CCC(Nc3nc(Nc4c(C)cc(C)cc4C)c4[nH]cnc4n3)CC2)cc1		IIIB	MT-4	4.83 µM
Cc1ccnc2c1NC(=O)c1cccnc1N2C1CC1		IIIB		0.312 µM
CCN(C)C1=NS(=O)(=O)NC(Cc2ccc3ccccc3c2)=C1		IIIB	MT-4	>195 µM
Cc1cc(C)c(Nc2nc(NC3CCN(Cc4ccccc4)CC3)nc3nc[nH]c23)c(C)c1		RES056	MT-4	>25.95 µM
Cc1cc(C)cc([C@]23SCCN2C(=O)c2ccccc23)c1		IIIB	MT-2	0.055 µM
C#Cc1ccc(Nc2nccc(Oc3c(C)cc(-c4cn(CC(=O)Nc5ccc(F)cc5)nn4)cc3C)n2)cc1	Y188L	IIIB	MT-4	>1.41 µM
O=S1(=O)NC(Cc2ccc3ccccc3c2)=CC(=NCCc2ccccc2)N1		IIIB	MT-4	>141 µM
CS(=O)(=O)c1ccc(CN2CCC(N=C3C=C(Cc4cccc5ccccc45)NS(=O)(=O)N3)CC2)cc1	RT-K103N Y181C	RES056	MT-4	>232 µM
c1cc(CN2CCCNCCNCCCNCC2)ccc1CN1CCCNCCNCCCNCC1		NL4-3	MT-4	0.001 µg/mL
COc1ccc(CCN=C2C=C(Cc3ccccc3)NS(=O)(=O)N2)cc1		IIIB	MT-4	>209 µM
CC(C)Nc1cccnc1N1CCN(C(=O)c2cc3cc(NS(C)(=O)=O)ccc3[nH]2)CC1		RES056	MT-4	>43.81 µM
Cc1cc(C#N)cc(C)c1Oc1nc(Nc2ccc(C#N)cc2)nc(N)c1Br	E138K	IIIB	MT-4	0.014 µM
Nc1cc[n+](C2CCC(CO)O2)c(=O)[nH]1		IIIB	MT-4	0.54 µg/mL
Cc1cc(C#N)cc(C)c1Oc1nc(Nc2ccc(C#N)cc2)nc(N)c1Br	L100I		MT-4	0.006 µM
Cc1ccnc2c1NC(=O)c1cccnc1N2C1CC1		IIIB	MT-4	0.24 µM
Cc1cn([C@H]2C[C@H](N=[N+]=[N-])[C@@H](CO)O2)c(=O)[nH]c1=O	RT-L100I	13MB1 (TIBO-resistant RT L100I)	MT-4	0.0001 µg/mL
O=C(CN1CCCC1)Nc1ccc(Cc2ccc(NC(=O)CN3CCCC3)cc2)cc1		IIIB	C8166	17.05 µg/mL
CCN(CC)C(=O)N1CCN(C(=O)N2CCCCC2)CC1		NL4-3	MT-4	>125 µg/mL
Cc1cc(C)c(Nc2nc(NC3CCN(Cc4ccc(Br)cc4)CC3)nc3nc[nH]c23)c(C)c1		RES056	MT-4	>11.45 µM
C#Cc1ccc(Nc2nccc(Oc3c(C)cc(-c4cn(CCC(=O)OC)nn4)cc3C)n2)cc1	F227L and V106A	IIIB	MT-4	>23.76 µM
N#Cc1cccc(CN2CCC(N=C3C=C(Cc4cccc5ccccc45)NS(=O)(=O)N3)CC2)c1	RT-K103N Y181C	RES056	MT-4	>113 µM
Cc1cc(C)nc(N2C(=O)CSC2c2c(Cl)ncnc2Cl)n1		NL4-3	TZM-bl	6.31 µM
CCc1c(Cc2cc(C)cc(C)c2)n(COCc2cn([C@H]3CC(n4cc(C)c(=O)[nH]c4=O)OC3CO)nn2)c(=O)[nH]c1=O		WILD TYPE	MT-4	0.08 µM
O=[N+]([O-])c1ccc(CN2CCC(N=C3C=C(Cc4ccc(Cl)cc4Cl)NS(=O)(=O)N3)CC2)cc1	RT-K103N Y181C	RES056	MT-4	>97.06 µM
CC(C)(C)NC(=O)[C@@H]1C[C@@H]2CCCC[C@@H]2CN1C[C@H](O)[C@H](Cc1ccccc1)NC(=O)[C@H](CC(N)=O)NC(=O)c1ccc2ccccc2n1		ROD	MT-2	0.0032 µM
COc1ccc(CN2CCC(N=C3C=C(Cc4cccc5ccccc45)NS(=O)(=O)N3)CC2)cc1		IIIB	MT-4	>119 µM
O=c1[nH]c(SCc2cn(Cc3ccc(F)cc3)nn2)nc(Cc2c(Cl)cccc2Cl)c1I		IIIB		>92.05 µM